{"source": "PubChem BioAssay AID1259414 (Drosophila RNAi Screening Center, 2018)", "assay": "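Host factors increasing or decreasing Wolbachia levels in cultured fly cells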 (primary screen)", "cell system": "Drosophila JW18 cells infected with Wolbachia", "knock-down reagent": "long dsRNA against Drosophila genes, 0.25 µg dsRNA per well of a 384-well plate", "duration": "5 days", "challenge": "cells persistently infected with Wolbachia before knock-down; no added drug", "read-out": "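Automated imaging of bacterial rRNA staining divided by host cell count, reported as plate-normalised robust z-score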", "reading the numbers": "Wolbachia per cell robust z: higher = more Wolbachia per host cell than the plate typical", "rule for the call": "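Hit when robust z is 1.5 or more, or -1.5 or less, in at least two of three replicates; excludes dsRNAs with several or no targets, genes not expressed in JW18 and well A1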", "note": "The deposit covers about 24,000 reagents; this is a random part of those with a known target gene and a result. Of all reagents, about 1,210 (5%) are marked active. 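Inactive calls also include excluded dsRNAs with several or no targets, genes unexpressed in JW18, and well A1, regardless of score.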 A plus sign joins genes that one reagent is predicted to hit."}
{"gene":"CG18268 + CG3014","dsRNA":"DRSC15319","Wolbachia per cell robust z, rep 1":0.419,"Wolbachia per cell robust z, rep 2":-1.37,"Wolbachia per cell robust z, rep 3":-4.65,"outcome":"inactive"}
{"gene":"CG32100","dsRNA":"DRSC09725","Wolbachia per cell robust z, rep 1":0.307,"Wolbachia per cell robust z, rep 2":-0.427,"Wolbachia per cell robust z, rep 3":-4.72,"outcome":"inactive"}
{"gene":"CG32100","dsRNA":"DRSC10331","Wolbachia per cell robust z, rep 1":0.357,"Wolbachia per cell robust z, rep 2":-0.193,"Wolbachia per cell robust z, rep 3":-0.0203,"outcome":"inactive"}
{"gene":"nAChRalpha7 (nicotinic Acetylcholine Receptor alpha7)","dsRNA":"DRSC20078","Wolbachia per cell robust z, rep 1":0.292,"Wolbachia per cell robust z, rep 2":0.591,"Wolbachia per cell robust z, rep 3":0.544,"outcome":"inactive"}
{"gene":"nAChRalpha7 (nicotinic Acetylcholine Receptor alpha7)","dsRNA":"DRSC20081","Wolbachia per cell robust z, rep 1":0.142,"Wolbachia per cell robust z, rep 2":0.421,"Wolbachia per cell robust z, rep 3":-0.179,"outcome":"inactive"}
{"gene":"CG8861","dsRNA":"DRSC12731","Wolbachia per cell robust z, rep 1":-0.195,"Wolbachia per cell robust z, rep 2":-0.248,"Wolbachia per cell robust z, rep 3":-0.488,"outcome":"inactive"}
{"gene":"CG8861","dsRNA":"DRSC16449","Wolbachia per cell robust z, rep 1":-0.545,"Wolbachia per cell robust z, rep 2":1.79,"Wolbachia per cell robust z, rep 3":-4.03,"outcome":"inactive"}

Already shown: 2 of the entries above.
{"gene":"CG8861","dsRNA":"DRSC12731","Wolbachia per cell robust z, rep 1":-0.195,"Wolbachia per cell robust z, rep 2":-0.248,"Wolbachia per cell robust z, rep 3":-0.488,"outcome":"inactive"}
{"gene":"CG8861","dsRNA":"DRSC16449","Wolbachia per cell robust z, rep 1":-0.545,"Wolbachia per cell robust z, rep 2":1.79,"Wolbachia per cell robust z, rep 3":-4.03,"outcome":"inactive"}

The listing continues:
{"gene":"Ts (Thymidylate synthase)","dsRNA":"DRSC00795","Wolbachia per cell robust z, rep 1":0.0142,"Wolbachia per cell robust z, rep 2":-0.249,"Wolbachia per cell robust z, rep 3":-0.525,"outcome":"inactive"}
{"gene":"Ts (Thymidylate synthase)","dsRNA":"DRSC22168","Wolbachia per cell robust z, rep 1":0.996,"Wolbachia per cell robust z, rep 2":0.579,"Wolbachia per cell robust z, rep 3":0.567,"outcome":"inactive"}
{"gene":"RpL11 (Ribosomal protein L11)","dsRNA":"DRSC07537","Wolbachia per cell robust z, rep 1":4.53,"Wolbachia per cell robust z, rep 2":1.54,"Wolbachia per cell robust z, rep 3":5.73,"outcome":"active"}
{"gene":"RpL11 (Ribosomal protein L11)","dsRNA":"DRSC26217","Wolbachia per cell robust z, rep 1":2.1,"Wolbachia per cell robust z, rep 2":1.63,"Wolbachia per cell robust z, rep 3":1.34,"outcome":"active"}
{"gene":"salr (spalt-related)","dsRNA":"DRSC03607","Wolbachia per cell robust z, rep 1":0.00984,"Wolbachia per cell robust z, rep 2":-6.02,"Wolbachia per cell robust z, rep 3":-0.48,"outcome":"inactive"}
